The exact form of at least one protein or probe is not confirmed. For some assays here: At least one verdict rests on a figure or table, not on a statement of the authors.
Legend:
[1] = target: DevR~P (phosphorylated DevR) (UniProt P9WMF9); test: EMSA; conditions: recombinant protein; protein details: His6 (N-terminal by name His6-DevR); label: none (ethidium bromide stain); probe letters rebuilt from the primers and the genome
[2] = test system: Rv0348 (MosR) + DevR~P (phosphorylated DevR); test: EMSA (supershift); conditions: recombinant protein; label: none (ethidium bromide stain); probe letters rebuilt from the primers and the genome

Sequence: TTACTGGCGGGGACCGCTATCTCCCAGGGGCGTTGGTCCCCACCTGAGGGCCGTTAGTCCTTATCGACCGATGACAGACGCAACCCGTCAGGGCGAGAATGAATCTCACCTATCGCACGGGTGGCTCGTCCAGGTCCACAACCATCGCCCAGCTTTTCACAGCAAAGTCCCAGAAATGGCTTACAGTTGCCGACAGCTGCCGAACCAGCGGCCGTC (double strand) [Rv3134c promoter fragment (devR operon promoter)]
- binding result [1]: binds
- binding result [2]: binds
